## Screening data, single-dose tests

Mtb cholesterol medium: 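Growth of Mycobacterium tuberculosis over 4 days (cholesterol / DPPC medium with tyloxapol); the read-out is not stated. Concentration: 500 µM. Direction is inferred from retests: higher values go with more growth inhibition. Of about 18,000 compounds tested this way, about 900 (5%) reached 50% or more in at least one test.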
Mtb glucose medium: 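Whole-cell growth test on Mycobacterium tuberculosis, read after 3 days in glucose-containing 7H9 medium; the read-out is not stated. Compounds at 500 µM. The record gives no direction; compounds that gave an IC50 in retests scored well above the rest, so higher reads as more growth inhibition. About 18,000 compounds were tested under these conditions; 7.9% (about 1,400) showed 50% or more at least once.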

The filed quantity is “Percent Effect” (%). How 0% and 100% were set is not recorded. Most values in the screen are low, and negative values occur. Many other results are left out here, so strong results are more common than in the screen. A dash means the value is not listed here; it may have been measured.

SMILES	Mtb cholesterol medium	Mtb glucose medium
OC(CN1CCn2ccnc2C1)c1ccc(F)cc1 (stereo not shown)	-	63.44%
O=S(=O)(CCNCc1cc[nH]c1)N1CCSCC1	-	14.33%
CC(C(N)=O)N1CCN(Cc2ccc(Cl)c(F)c2)CC1 (stereo not shown)	-	30.91%
CC(C)c1cc(N)[nH]n1	19.3%	55.18%
CN(Cc1nccn1C1CC1)CC1(C)COC1	-	8.357%
CC(=O)NCCNC(=O)c1oc(Br)cc1C	-	14.57%
C[C@@H](C(=O)NCCCc1cccnc1)n1cnnn1	8.008%	10.86%
NC(=O)c1cccc2[nH]ccc12	-	-7.052%
Cc1ccc(NC(=O)CN(C)C)cc1C(=O)NC(C)C	4.061%	-
CCN(CC(N)=O)Cc1ccccc1NC(C)=O	-	-2.993%
CCOc1cccc2c1CCC2N (stereo not shown)	-	37.44%
CNS(=O)(=O)c1ccc(F)c(C)c1	0.4474%	-
CS(=O)(=O)N1CCOCC12CCC2	-3.003%	-
CN[C@@H]1COC[C@H]1O	-	-5.182%
COCc1ccccc1CNC(=O)NC(C)C	-4.449%	-1.532%
CN(C(=O)CCc1ccnn1C)C1CCNCC1	-	-7.471%
COc1cccc([C@@H]2C[C@H]2CN)c1	35.63%	-
Cc1ccc(-c2noc(C(C)N)n2)cc1F (stereo not shown)	71.68%	69.02%
NC(=O)c1cccc(NC(=O)Cc2ccc(F)cc2)c1	-	39.36%
COc1ccc(OC)c(CCN)c1	6.723%	22.62%
Cc1ccc(S(=O)(=O)N2CCOc3ccncc32)cc1	-	56.84%
CN(CC(=O)N1CCNC1=O)CC1CCCCC1	-	-5.986%
c1ccc(-c2nnc(CC3CCNC3)[nH]2)cc1 (stereo not shown)	-17.24%	-
NC(=O)NCC(=O)NCc1ccccc1-n1ccnc1	-	6.962%
CNC(=O)c1ccc(CO)o1	-	-12.52%
CN(C)C(=O)c1ccc(N)nn1	-	7.225%
CCN1CCC(NC(=O)c2ccc3c(c2)OCO3)CC1	-7.435%	-
CC(C)(C)OC(=O)N1C[C@@H]2CCN[C@@H]2C1	-	-19.62%
O=C(CCc1ccccn1)N[C@@H]1CCNC[C@H]1O	-	16.68%
NCCCOC1CCN(C(=O)c2ccc(Br)o2)CC1	31.5%	52.04%
Cc1n[nH]cc1CNCc1ccccc1CO	-	34.64%
COc1ccccc1CC(=O)Nc1ncc(C(N)=O)s1	-	63.42%
O=C(CN1CCNCC1)NCCSc1ccc(Cl)cc1	60.84%	71.6%
CC(C)N(C)C(=O)Nc1cccnc1OCC(F)F	-	22.23%
CN(C)Cc1ccc(-c2nc(C3CCOC3)no2)o1 (stereo not shown)	3.076%	17.79%
O=C(NCCNCC1(O)CCNC1)c1ccccc1Cl (stereo not shown)	-	12.22%
CCC(CO)NC(=O)c1cc(N(C)C)ccn1 (stereo not shown)	-	-10.96%
CCOc1cc(CN)ccn1	-0.4667%	45.16%
CS(=O)(=O)CCN1CCSC2(CCCCC2)C1	26.43%	-
Cc1cnccc1CNC(=O)CSCCN1CCCC1	-	12.1%
CC(C)CCNC(=O)CCn1cc(Br)ccc1=O	-	50.54%
O=C1CN(Cc2ncc(-c3ccc(Cl)cc3)o2)CCN1	-14.33%	-
Cc1noc(C)c1S(=O)(=O)N1CCC(C(N)=O)C1 (stereo not shown)	-21.57%	-

The last 3 entries again:

With CC(C)CCNC(=O)CCn1cc(Br)ccc1=O the screen gave Mtb glucose medium: 50.54%.
With O=C1CN(Cc2ncc(-c3ccc(Cl)cc3)o2)CCN1 the screen gave Mtb cholesterol medium: -14.33%.
With Cc1noc(C)c1S(=O)(=O)N1CCC(C(N)=O)C1 (stereo not shown) the screen gave Mtb cholesterol medium: -21.57%.

Source: ChEMBL document CHEMBL3988442, “University of Dundee, Small-Polar-MMV Screening Library” (2021).